Anti-infective test results gathered from many reports (values: NIAID ChemDB through PubChem).

All rows: toxicity to cultured cells; cells: MT-4; endpoint: CC50

CCn is the concentration with n% toxicity to the cells.

structure,method,result
CSCCC(NS(=O)(=O)c1ccc(Cl)cc1)c1nnc(SCc2ccccc2)o1,-,12.67 µg/mL
CCN1O[C@@]2(CC[C@H](C)N3C[C@H]2n2cc(C(=O)NCc4c(F)cc(F)cc4F)c(=O)c(O)c2C3=O)CC1=O,luminescence,50 µM
O=C(O)c1cc(O)c(O)c(Oc2c(C(=O)OC3C(OC(=O)c4cc(O)c(O)c(O)c4)OC4COC(=O)c5cc(O)c(O)c(O)c5-c5c(cc(O)c(O)c5O)C(=O)OC4C3OC(=O)c3cc(O)c(O)c(O)c3)cc(O)c(O)c2O)c1,-,28.2 µg/mL
Cc1cn([C@H]2C[C@H](N=[N+]=[N-])[C@@H](CO)O2)c(=O)[nH]c1=O,MTT,>25 µM
C=CCN1C(C)C(=O)Nc2ccc(Cl)cc2S1(=O)=O,MTT,>200 µM
COc1ccc(/C=C/C(=O)c2c(O)c3cc(Cl)c(C)cc3oc2=O)cc1OC,-,71.4 µg/mL
Cc1ccc(S(=O)(=O)NC(Cc2ccccc2)c2nnc(SCc3ccc(Cl)cc3)o2)cc1,-,99.4 µg/mL
CCn1c(C)c(C)c2c(-c3ccc(Cl)cc3)c(C(OC(C)(C)C)C(=O)O)c(C)nc21,MTT,>233 µM
CCCCCCCCCCCCCCNC(=O)C(CO[C@@H]1O[C@H](CO)[C@H](O)[C@H](O)[C@H]1O)NC(=O)CC(=O)NCCS(=O)(=O)O,-,>100 µM
Fc1cccc(Cl)c1CCNC(=S)Nc1nccs1,-,111 µM
NC(N)=NCCCC(NC(=S)NC(=O)CCCN1C(=O)c2ccccc2C1=O)C(=O)O,MTT,12.6 µM
Cc1ccc(-c2nnc(-c3ccc(N)cc3)o2)cc1,-,22 µg/mL
Nc1ncnc2c1ncn2[C@H]1C=C[C@@H](OCP(=O)(O)O)O1,-,>500 µM
Cc1cc(F)cc(C(=O)c2c(C(C)C)c(=O)[nH]c(=O)n2Cc2ccncc2)c1,MTT,22.7 µg/mL
Cc1nc2c(c(C)c(C)n2CC2C(=O)c3ccccc3C2=O)c(-c2ccc(Cl)cc2)c1C(OC(C)(C)C)C(=O)O,MTT,>179 µM
COc1cc(/C=C/C(=O)c2c(O)c3cc(Cl)c(C)cc3oc2=O)ccc1O,-,9.87 µg/mL
C[C@H]1CC[C@]2(CC(C#CC(C)(C)S(C)(=O)=O)=NO2)[C@H]2CN1C(=O)c1c(O)c(=O)c(C(=O)NCc3c(F)cc(F)cc3F)cn12,luminescence,50 µM
CCOC(=O)C(C)N(CC)S(=O)(=O)c1cc(Cl)ccc1N,MTT,>200 µM
C=C(C)COCn1c(C(=C)c2ccccc2)c(CC)c(=O)[nH]c1=O,MTT,>100 µM
N#Cc1cc(Cl)cc(Oc2cc(CCc3[nH]nc4ncccc34)ccc2Cl)c1,microscopy,>20 µM
O=C(CCCN1C(=O)c2ccccc2C1=O)NC(=S)NC(CS)C(=O)O,MTT,90.9 µM
O=C(O)CCCCCCCCCCCCCNC(=O)C(CO[C@@H]1O[C@H](CO)[C@H](O)[C@H](O)[C@H]1O)NC(=O)CCC(=O)O,-,>100 µM
O=C(OC1OC2COC(=O)c3cc(Oc4c(C(=O)OC5OC6COC(=O)c7cc(O)c(O)c(O)c7-c7c(cc(O)c(O)c7O)C(=O)OC6C(OC(=O)c6cc(O)c(O)c(O)c6)C5OC(=O)c5cc(O)c(O)c(O)c5)cc(O)c(O)c4O)c(O)c(O)c3-c3c(cc(O)c(O)c3O)C(=O)OC(C2O)C1O)c1cc(O)c(O)c(O)c1,-,33.5 µg/mL
Clc1ccc(-c2nn3c(-c4ccc(Cl)c(Cl)c4)nnc3s2)cc1Cl,-,67.8 µg/mL
C[C@H]1CC[C@@]2(CC(C#CC(C)(C)S(C)(=O)=O)=NO2)[C@H]2CN1C(=O)c1c(O)c(=O)c(C(=O)NCc3c(F)cc(F)cc3F)cn12,luminescence,50 µM
Cc1cc(Cn2c(C(=O)c3cc(Cl)cc(Cl)c3)c(C(C)C)c(=O)[nH]c2=O)ccn1,MTT,12.07 µg/mL
O=C(O)CCCCCCCCCCCCC(=O)NC(CO[C@@H]1O[C@H](CO)[C@H](O)[C@H](O)[C@H]1O)C(=O)NCCO,-,>100 µM
C#CCOCn1c(C(=C)c2cc(C)cc(C)c2)c(CC)c(=O)[nH]c1=O,MTT,>100 µM
CCc1c(C(=O)c2cc(C)cc(C)c2)n(Cc2ccnc(C)c2)c(=O)[nH]c1=O,MTT,14.3 µg/mL
CC1Cn2c(=O)[nH]c3cc(Cl)cc(c32)S(=O)(=O)N1,MTT,>200 µM
CCc1c(C(=O)c2cc(Cl)cc(Cl)c2)n(Cc2ccncc2)c(=O)[nH]c1=O,MTT,32.9 µg/mL
CC(O)C(NC(=S)NC(=O)CCCN1C(=O)c2ccccc2C1=O)C(=O)O,MTT,28.54 µM
N#Cc1cc(Cl)cc(Oc2cc(OCc3[nH]nc4nc(N5CC(N)C5)ccc34)ccc2Cl)c1,microscopy,>20 µM
C[C@@H](NS(=O)(=O)c1ccc(Cl)cc1)C(=O)NN,-,125 µg/mL
C=CCOCn1c(C(=C)c2ccccc2)c(CC)c(=O)[nH]c1=O,MTT,>100 µM
COc1ccc(S(=O)(=O)NCCCc2n[nH]c(=S)o2)cc1,-,125 µg/mL
Nc1ccc(-c2nnc3sc(-c4cc5ccccc5oc4=O)nn23)cc1,-,108.3 µg/mL
Cc1ccccc1CCNC(=S)Nc1nccs1,-,72 µM
Clc1ccc(-c2nn3c(-c4cccc(Br)c4)nnc3s2)cc1Cl,-,4.12 µg/mL
O=[N+]([O-])c1ccccc1CCNC(=S)Nc1nccs1,-,123 µM
C[C@H]1CC[C@]2(CC(=O)NO2)[C@H]2CN1C(=O)c1c(O)c(=O)c(C(=O)NCc3c(F)cc(F)cc3F)cn12,luminescence,50 µM
O=C(OC[C@H]1O[C@@H](OC(=O)c2cc(O)c(O)c(O)c2)[C@H](OC(=O)c2cc(O)c(O)c(O)c2)[C@@H](OC(=O)c2cc(O)c(O)c(O)c2)[C@@H]1O)c1cc(O)c(O)c(O)c1,-,33.9 µg/mL
COC1CN(c2ccc3c(COc4ccc(Cl)c(Oc5cc(Cl)cc(C#N)c5)c4)[nH]nc3n2)C1,microscopy,>20 µM
CCc1c(C(=O)c2cc(F)cc(F)c2)n(Cc2cc(C)nc(C)c2)c(=O)[nH]c1=O,MTT,37.5 µg/mL
Oc1ccc(-c2nnc3sc(-c4ccc[nH]4)nn23)c(Cl)c1Cl,MTT,68.48 µg/mL
COC(=O)C(CC(C)C)NC(=O)CCCN1C(=O)c2ccccc2C1=O,MTT,10.89 µM
NS(=O)(=O)c1ccc(NC(=O)COc2cc(Cl)cc(Oc3ccccc3)c2)c(Cl)c1,microscopy,>20 µM
C=C(c1ccccc1)c1c(CC)c(=O)[nH]c(=O)n1COCC=C(C)C,MTT,66 µM
C[C@H]1CC[C@]2(CC(=O)N(Cc3cnn(C)n3)O2)[C@H]2CN1C(=O)c1c(O)c(=O)c(C(=O)NCc3c(F)cc(F)cc3F)cn12,luminescence,50 µM
COC(=O)C(Cc1ccccc1)NC(=O)CCCN1C(=O)c2ccccc2C1=O,MTT,37.82 µM
Oc1ccc(-c2nnc3sc(-c4ccc(O)c(Cl)c4Cl)nn23)cc1Br,MTT,4.12 µg/mL
O=C1OC2OC3COC(=O)c4cc(O)c(O)c(O)c4-c4c(cc(O)c(O)c4O)C(=O)OC3C(OC(=O)c3cc(O)c(O)c(O)c3)C2OC(=O)c2cc(O)c(O)c(O)c2Oc2cc(cc(O)c2O)C(=O)OC2OC3COC(=O)c4cc(O)c(O)c(O)c4-c4c(cc(O)c(O)c4O)C(=O)OC3C(OC(=O)c3cc(O)c(O)c(O)c3)C2OC(=O)c2cc(O)c(O)c(O)c2Oc2cc1cc(O)c2O,-,75.5 µg/mL
Cc1cn([C@H]2C[C@H](N=[N+]=[N-])[C@@H](CO)O2)c(=O)[nH]c1=O,MTT,0.53 µg/mL
Nc1cc(O)ccc1-c1nn2c(-c3ccc(O)c(Cl)c3Cl)nnc2s1,MTT,19.61 µg/mL
O=C1O[C@H]2[C@@H]3OC(=O)c4cc(O)c(O)c5c4[C@@H]4C(=CC(=O)[C@](O)(O5)C4(O)O)C(=O)OC[C@H]2O[C@@H](OC(=O)c2cc(O)c(O)c(O)c2)C3OC(=O)c2cc(O)c(O)c3c2[C@@H]2C1=CC(=O)[C@](O)(O3)C2(O)O,-,63.1 µg/mL
CCOCn1c(Cc2ccccc2)c(C(C)C)c(=O)[nH]c1=O,MTT,>100 µM
CCCCn1c(C)c(C)c2c(-c3ccc(Cl)cc3)c(C(OC(C)(C)C)C(=O)O)c(C)nc21,MTT,>219 µM
CC(C)=CCN(C(C)C(=O)O)S(=O)(=O)c1cc(Cl)ccc1[N+](=O)[O-],MTT,≥200 µM
CSCC[C@H](NS(=O)(=O)c1ccc(C)cc1)c1n[nH]c(=S)o1,-,71 µg/mL
CSCCC(NS(=O)(=O)c1ccc(Cl)cc1)c1nnc(SCc2ccc(Cl)cc2)o1,-,11.88 µg/mL
CCc1c(C(=O)c2cc(C)cc(C)c2)n(Cc2ccc([N+](=O)[O-])cc2)c(=O)[nH]c1=O,MTT,4.63 µg/mL
Cc1ccc(S(=O)(=O)NC(Cc2ccccc2)c2nnc(SCc3ccc(F)cc3)o2)cc1,-,90.83 µg/mL
O=CC(OC(=O)c1cc(Oc2cc3c(c(O)c2O)Oc2cc(cc(O)c2O)C(=O)OC2OC4COC(=O)c5cc(O)c(O)c(O)c5-c5c(cc(O)c(O)c5O)C(=O)OC4C(OC(=O)c4cc(O)c(O)c(O)c4)C2OC3=O)c(O)c(O)c1O)C(OC(=O)c1cc(O)c(O)c(O)c1)C1OC(=O)c2cc(O)c(O)c(O)c2-c2c(cc(O)c(O)c2O)C(=O)OCC1O,-,64.3 µg/mL
CC(C)OC(=O)OCOP(=O)(CO[C@H](C)Cn1cnc2c(N)ncnc21)OCOC(=O)OC(C)C,MTT,6.73 µg/mL
N#Cc1cc(Cl)cc(Oc2cc(Cl)cc(OCC(=O)Nc3ccc(C(N)=O)cc3Cl)c2)c1,microscopy,>20 µM
Cc1ccc(-c2nnc(-c3ccc(NS(=O)(=O)c4ccc(C)cc4)cc3)o2)cc1,-,89 µg/mL
Cc1cn([C@H]2C[C@H](N=[N+]=[N-])[C@@H](CP(=O)(O)O)O2)c(N)nc1=O,-,58.62 µg/mL
COC(=O)C(NC(=O)CCCN1C(=O)c2ccccc2C1=O)C(C)C,MTT,125 µM
CC1(C)C=Cc2c(c3c(c4ccc(=O)oc24)OC(C)(C)C=C3)O1,MTT,41 µM
C=C(c1cc(C)cc(C)c1)c1c(CC)c(=O)[nH]c(=O)n1COC/C=C/c1ccccc1,MTT,4 µM
C[C@H]1CC[C@]2(CNC(=O)C2)[C@H]2CN1C(=O)c1c(O)c(=O)c(C(=O)NCc3c(F)cc(F)cc3F)cn12,luminescence,50 µM
CCc1c(Oc2cc(C)cc(C)c2)n(Cc2ccncc2)c(=O)[nH]c1=O,MTT,>100 µg/mL
C[C@H]1CC[C@@]2(CCO2)[C@H]2CN1C(=O)c1c(O)c(=O)c(C(=O)NCc3c(F)cc(F)cc3F)cn12,luminescence,50 µM
Nn1c(-c2ccc(Cl)c(Cl)c2)n[nH]c1=S,-,72.83 µg/mL
Fc1cccc(CCNC(=S)Nc2nccs2)c1,-,78 µM
COC1=NO[C@@]2(CC[C@@H](C)N3C[C@H]2n2cc(C(=O)NCc4c(F)cc(F)cc4F)c(=O)c(O)c2C3=O)C1,luminescence,13.4 µM
Oc1ccc(-c2nnc3sc(-c4cccs4)nn23)c(Cl)c1Cl,MTT,92.7 µg/mL
Cc1cc2oc(=O)c(C(=O)/C=C/c3ccccc3)c(O)c2cc1Cl,-,3.64 µg/mL
CSCCC(NC(=S)NC(=O)CCCN1C(=O)c2ccccc2C1=O)C(=O)O,MTT,78.22 µM
Cc1cc2oc(=O)c(C(=O)/C=C/c3cccc(Oc4ccccc4)c3)c(O)c2cc1Cl,-,60.4 µg/mL
CC(C)=CCN1C(C)Cn2c(=S)[nH]c3cc(Cl)cc(c32)S1(=O)=O,MTT,23 µM

For reference, 11 entries again:

| structure | method | result |
|---|---|---|
| N#Cc1cc(Cl)cc(Oc2cc(OCc3[nH]nc4nc(N5CC(N)C5)ccc34)ccc2Cl)c1 | microscopy | >20 µM |
| CCN1O[C@@]2(CC[C@H](C)N3C[C@H]2n2cc(C(=O)NCc4c(F)cc(F)cc4F)c(=O)c(O)c2C3=O)CC1=O | luminescence | 50 µM |
| CSCCC(NC(=S)NC(=O)CCCN1C(=O)c2ccccc2C1=O)C(=O)O | MTT | 78.22 µM |
| Oc1ccc(-c2nnc3sc(-c4ccc(O)c(Cl)c4Cl)nn23)cc1Br | MTT | 4.12 µg/mL |
| Cc1cc2oc(=O)c(C(=O)/C=C/c3cccc(Oc4ccccc4)c3)c(O)c2cc1Cl | - | 60.4 µg/mL |
| O=C(CCCN1C(=O)c2ccccc2C1=O)NC(=S)NC(CS)C(=O)O | MTT | 90.9 µM |
| CCc1c(C(=O)c2cc(F)cc(F)c2)n(Cc2cc(C)nc(C)c2)c(=O)[nH]c1=O | MTT | 37.5 µg/mL |
| CCc1c(Oc2cc(C)cc(C)c2)n(Cc2ccncc2)c(=O)[nH]c1=O | MTT | >100 µg/mL |
| Cc1ccc(-c2nnc(-c3ccc(NS(=O)(=O)c4ccc(C)cc4)cc3)o2)cc1 | - | 89 µg/mL |
| Fc1cccc(CCNC(=S)Nc2nccs2)c1 | - | 78 µM |
| O=C(O)c1cc(O)c(O)c(Oc2c(C(=O)OC3C(OC(=O)c4cc(O)c(O)c(O)c4)OC4COC(=O)c5cc(O)c(O)c(O)c5-c5c(cc(O)c(O)c5O)C(=O)OC4C3OC(=O)c3cc(O)c(O)c(O)c3)cc(O)c(O)c2O)c1 | - | 28.2 µg/mL |

An empty or dashed field is not shown. Lines come from different laboratories, so protocols vary.